“And” between values parts separate entries of the source, which are not always exact repeats. Equal entries are not always repeated.
Tests used:
[1] = biological target: Hantaan virus polymerase (HTNV-L), full-length wild type (Hantaan virus (strain 76-118/Korean hemorrhagic fever)) (UniProt P23456); experiment: mass photometry
[2] = biological target: Hantaan virus polymerase (HTNV-L), full-length wild type (Hantaan virus (strain 76-118/Korean hemorrhagic fever)) (UniProt P23456); experiment: mass photometry; remark: listed apart in the source
[3] = biological target: Hantaan virus polymerase (HTNV-L), full-length wild type (Hantaan virus (strain 76-118/Korean hemorrhagic fever)) (UniProt P23456); experiment: cryo-EM structure
[4] = biological target: Hantaan virus polymerase (HTNV-L), full-length wild type (Hantaan virus (strain 76-118/Korean hemorrhagic fever)) (UniProt P23456); experiment: cryo-EM 2D class averages

With “Hantaan virus polymerase (HTNV-L), full-length wild type, P23456 1-2151” as the substance, how does the percent of detected species that are dimers [1] read?
The percent of detected species that are dimers was 17%.

And the percent of detected species that are higher oligomers up to hexamers [1]?
The percent of detected species that are higher oligomers up to hexamers was 2%.

And the stoichiometry N [1]?
Its stoichiometry N is 2 and 6.

And the stoichiometry N [2]?
The stoichiometry N was 3 and 4.

What about the percent of particles in 2D class averages that are hexamers [3] of the same substance?
Its percent of particles in 2D class averages that are hexamers is 2.1%.

What about the percent of particles in 2D class averages that are symmetric dimers [3] of the same substance?
Its percent of particles in 2D class averages that are symmetric dimers is 10.1%.

What about the stoichiometry N [3] of the same substance?
The stoichiometry N was 2 and 6.

What about the percent of particles in 2D class averages that are 5'vRNA-related dimers [4] of the same substance?
The percent of particles in 2D class averages that are 5'vRNA-related dimers was 7.6%.

And the stoichiometry N [4]?
Its stoichiometry N is 2.

From article PMC10937945 (2023)
